## Share of PSTVd stem 3 variants by leaf site

Source: Wu et al. 2024 (doi:10.1371/journal.ppat.1012142), supplementary data.

PSTVd intermediate strain, stem 3: wild type GUGGUUCCGGAACCGC, pool pattern GUGGUUCCGNANNCNN; upper and lower strand joined, each 5' to 3', the first 8 letters being the upper strand.

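Three N. benthamiana plants were inoculated with the whole mutant pool. Progeny were sequenced from the inoculated region (day 5), the margin of the inoculated leaf (day 10) and systemic leaves (day 12).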

Numbers give reads per thousand; 0 = not seen among the reads, higher = more abundant. Each site shows the three plants. "Pool" is the share in the plasmid pool used as inoculum, on the same scale. The inoculated region was read from the minus strand, the other sites from the plus strand. IR is the inoculated region, LM the leaf margin, Sys the systemic leaves.

| sequence | pool | IR | LM | Sys |
|---|---|---|---|---|
| AUGGUUCCGGACCCCC | 0.0154 | 0 0 0 | 0 0 0 | 0 0 0 |
| GUGAUUCCGAAACCUA | 0.0154 | 0 0 0 | 0 0 0 | 0 0 0 |
| GUGGGUCCGAAACCUA | 0.0154 | 0 0 0 | 0 0 0 | 0 0 0 |
| GUGGUUCAGUACCCUA | 0.0154 | 0 0 0 | 0 0 0 | 0 0 0 |
| GUGGUUCAGUAUGCAA | 0.0154 | 0 0 0 | 0 0 0 | 0 0 0 |
| GUGGUUCCGAAAACCA | 0.769 | 0.293 0.367 0.189 | 0 0 0 | 0 0 0 |
| GUGGUUCCGAAACCGG | 0.616 | 0.426 0.216 0.405 | 0 0.0318 0.0722 | 0 0 0 |
| GUGGUUCCGAAAUCAU | 1.09 | 0.906 0.712 0.622 | 1.93 1.05 0.325 | 1.21 1.31 1.09 |
| GUGGUUCCGAAAUCUA | 1.43 | 1.04 1.08 1.38 | 0 0 0.0361 | 0 0 0 |
| GUGGUUCCGAACACUC | 1.31 | 0.560 0.539 0.567 | 0.0283 0.0636 0.0361 | 0.112 0 0 |
| GUGGUUCCGAACUCCU | 1.48 | 1.31 1.12 1.30 | 1.39 1.15 0.614 | 1.38 1.24 0.900 |
| GUGGUUCCGAAGACGU | 0.831 | 0.853 0.755 1.08 | 0 1.08 0.325 | 0 0 0 |
| GUGGUUCCGAAGACUG | 1.05 | 0.880 0.668 0.865 | 0.0283 0.0318 0 | 0 0 0 |
| GUGGUUCCGAAGACUU | 1.11 | 0.933 0.755 1.05 | 1.64 0.986 0.469 | 1.23 1.53 0.900 |
| GUGGUUCCGAAUACGG | 0.877 | 0.560 0.712 1.00 | 0.340 0.0318 0.433 | 0 0 0 |
| GUGGUUCCGAAUGCCC | 0.831 | 0.400 0.259 0.351 | 0.0283 0 0.0722 | 0 0 0 |
| GUGGUUCCGAAUGCGG | 0.677 | 0.373 0.237 0.405 | 0 0 0 | 0 0 0 |
| GUGGUUCCGCAAACUC | 0.846 | 0.240 0.302 0.243 | 0 0 0.0361 | 0 0 0 |
| GUGGUUCCGCACCCCA | 0.908 | 0.400 0.345 0.0811 | 0 0 0 | 0 0 0 |
| GUGGUUCCGCAGACCC | 0.754 | 0.453 0.367 0.189 | 0 0 0 | 0 0 0 |
| GUGGUUCCGCAGACGC | 0.877 | 0.560 0.302 0.216 | 0 0 0 | 0 0.0553 0 |
| GUGGUUCCGCAGUCCA | 0.723 | 0.560 0.582 0.811 | 0.0283 0 0.217 | 0 0 0 |
| GUGGUUCCGCAGUCGU | 0.662 | 0.853 0.668 0.622 | 0 0.700 0.542 | 0 0 0 |
| GUGGUUCCGCAUCCCU | 0.631 | 0.213 0.345 0.351 | 0 0.0318 0.0361 | 0 0 0 |
| GUGGUUCCGCAUCCUA | 0.908 | 0.453 0.367 0.270 | 0 0 0 | 0 0 0 |
| GUGGUUCCGCAUGCUG | 0.877 | 0.400 0.302 0.243 | 0 0.0318 0 | 0 0 0 |
| GUGGUUCCGCAUUCUU | 0.723 | 0.853 0.733 0.730 | 0 0 0.469 | 0 0 0 |
| GUGGUUCCGGAACCCU | 0.816 | 0.347 0.280 0.0540 | 0 0.0318 0 | 0 0 0 |
| GUGGUUCCGGAAGCGU | 0.877 | 0.426 0.173 0.432 | 0 0.0318 0.0361 | 0 0 0 |
| GUGGUUCCGGAAUCGA | 1.29 | 0.773 0.733 0.513 | 0.0567 0 0 | 0.0186 0 0 |
| GUGGUUCCGGAAUCUC | 0.831 | 0.373 0.367 0.162 | 0 0 0.0361 | 0 0 0 |
| GUGGUUCCGGACACCA | 0.816 | 0.480 0.323 0.432 | 0 0 0 | 0 0 0 |
| GUGGUUCCGGACGCGC | 0.908 | 0.373 0.302 0.270 | 0 0 0 | 0 0 0 |
| GUGGUUCCGGACUCUA | 0.846 | 0.320 0.302 0.189 | 0.0283 0 0.0361 | 0 0 0 |
| GUGGUUCCGGAGCCCG | 0.831 | 0.480 0.323 0.243 | 0 0 0 | 0 0 0 |
| GUGGUUCCGGAGGCCG | 0.862 | 0.293 0.431 0.0811 | 0 0 0.0361 | 0 0 0 |
| GUGGUUCCGGAUACGG | 1.63 | 0.693 1.12 0.892 | 0.0283 0 0 | 0.149 0.0738 0 |
| GUGGUUCCGGAUGCAA | 1.71 | 0.960 0.625 1.05 | 0 0 0 | 0.186 0.0553 0 |
| GUGGUUCCGGAUGCAG | 0.893 | 0.800 0.582 0.351 | 0 0 0.0361 | 0.0186 0 0 |
| GUGGUUCCGUAAGCUC | 0.985 | 0.347 0.237 0.324 | 0 0 0.0361 | 0 0 0 |
| GUGGUUCCGUAAUCUC | 0.708 | 0.240 0.367 0.108 | 0 0.0318 0 | 0 0 0 |
| GUGGUUCCGUACACAC | 0.862 | 0.453 0.280 0.297 | 0 0 0 | 0 0 0 |
| GUGGUUCCGUACCCAG | 0.985 | 0.453 0.302 0.378 | 0 0.0318 0 | 0 0 0 |
| GUGGUUCCGUACGCCC | 1.00 | 0.347 0.388 0.216 | 0 0 0 | 0 0 0 |
| GUGGUUCCGUAGCCAG | 0.877 | 0.880 0.604 1.03 | 0 0.0318 0 | 0 0 0 |
| GUGGUUCCGUAUCCAA | 0.662 | 0.506 0.388 0.351 | 0 0 0.0361 | 0 0 0 |
| GUGGUUCCGUAUCCUA | 0.739 | 0.347 0.323 0.189 | 0 0 0.0722 | 0 0 0 |
| GUGGUUCCGUAUGCAA | 1.22 | 0.400 0.194 0.135 | 0 0 0 | 0 0 0 |
| GUGGUUCCGUAUGCUC | 1.66 | 0.506 0.539 0.622 | 0 0.0636 0.0722 | 0.0932 0 0 |
| GUGGUUCCGUAUUCGG | 1.05 | 0.426 0.280 0.243 | 0 0 0.0722 | 0 0 0 |
| GUGGUUGCGUACGCCG | 0.0154 | 0 0 0 | 0 0 0 | 0 0 0 |
| GUGUUUAGGGAAAAGA | 0.0154 | 0 0 0 | 0 0 0 | 0 0 0 |
| GUUGUUCCGGAGCCCC | 0.0154 | 0 0 0 | 0 0 0 | 0 0 0 |
| GUUGUUCCGUAAUCGC | 0.0154 | 0 0 0 | 0 0 0 | 0 0 0 |

Wild type was 17.3 per thousand in the pool and the most common sequence in every sample (inoculated region 330, 345, 235; leaf margin 794, 766, 816; systemic leaves 830, 792, 869). Sequences that differ at fixed positions probably stem from PCR or sequencing errors, and defective variants can be carried along by functional ones. Samples held 27,691 to 54,225 reads, so the smallest values rest on one or two reads.